# Primary screen of a compound library

Values are the deposited “Percent Effect”, in %.
How 0% and 100% were set is not recorded. Most values in the screen are low, and negative values occur.
Many other results are left out here, so strong results are more common than in the screen.
A dash means the value is not listed here; it may have been measured.

Mtb glucose medium: 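Whole-cell growth test on Mycobacterium tuberculosis, read after 3 days in glucose-containing 7H9 medium; the read-out is not stated. Concentration: 500 µM. Higher reads as more growth inhibition (inferred: compounds with an IC50 in retests scored well above the rest). About 18,000 compounds were tested under these conditions; 7.9% (about 1,400) showed 50% or more at least once.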
Mtb cholesterol medium: 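Phenotypic screen: M. tuberculosis growth, cholesterol and DPPC medium, 4 days; the read-out is not stated. Compounds at 500 µM. Direction is inferred from retests: higher values go with more growth inhibition. Of about 18,000 compounds tested this way, about 900 (5%) reached 50% or more in at least one test.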

structure | Mtb glucose medium | Mtb cholesterol medium
N[C@@H]1CC[C@@H](NS(=O)(=O)N2CCc3ccccc3C2)C1 | - | 8.359%
O=C1CCc2cc(C(=O)N3CCCC3)ccc2N1 | -5.82% | -
COCc1nn(CCCN2CCCCC2)c(=O)o1 | -4.28% | -4.057%
CC(C#N)N1CCC(C(=O)NCc2cccs2)CC1 (centres unmarked) | - | 11.49%
CC(=O)N(Cc1noc(C2CC2)n1)C1CCNC1 (centres unmarked) | 7.461% | 0.8846%
CC(=O)NC(C(=O)Nc1ccc(N(C)C)nc1)C(C)C (centres unmarked) | 0.4217% | -
CNc1cnc(C#N)cn1 | 6.999% | -
COC(=O)c1ccc(C(=O)N=c2sccn2C)cc1 | - | -7.947%
CCOCCC(=O)NC(C)c1nncn1C(C)C (centres unmarked) | - | -6.597%
CC(=O)NC(CC(=O)Nc1ccccn1)c1cccs1 (centres unmarked) | 3.223% | -
c1ccc(-n2nnnc2CN2CCCNCC2)cc1 | - | -0.8454%
NC1CCN(c2cccc(Br)c2)C1 (centres unmarked) | 2.461% | -7.517%
O=S(=O)(NC1CCCNC1)c1cccc(F)c1 (centres unmarked) | - | 14.81%
Cc1nnsc1CN(C)C(=O)c1cccc2c1OCC2 | 29.06% | -
OCCOCCSc1n[nH]c(-c2cc(F)cc(F)c2)n1 | 51.14% | -
O=C(NCCn1ccnc1)N1CCc2sccc2C1 | 27.16% | -
N[C@H]1CCN(S(=O)(=O)c2ccc(F)c(C(F)(F)F)c2)C1 | 65.03% | 59.39%
CCc1ccccc1CN1C(=O)CCC1=O | 57.76% | 6.682%
NCc1cccc(F)c1OC(F)F | - | -9.776%
CC(O)CC(C)(C)CN (centres unmarked) | 0.6126% | -
Cc1cc(C(=O)NCc2cccnc2OC(C)C)on1 | - | 36.53%
CCNC(=O)CCN(C)Cc1nc2cccc(C)c2[nH]1 | 10.28% | -
Cc1ccc(NC(=O)Cn2ccc(=O)n(C)c2=O)nc1 | - | 3.402%
NCC1CCN(S(=O)(=O)C2CC2)CC1 | 10.61% | -
CN(CCCOc1ccc(Cl)cc1)CC(N)=O | 32.28% | 40.09%
CCCNC(=O)c1ccc(CN2CCOCC2)cc1 | 29.37% | -
NC(=O)[C@@H]1Cc2ccccc2CN1CCn1cccn1 | - | 5.918%
O=C(CCN1CCC(O)C1)N1CCOCC1 (centres unmarked) | - | -11.6%
Cc1cccc(CCC(=O)N2CCNCC2)c1 | - | 8.858%
c1nc2c([nH]1)C1(CCOCC1)NCC2 | 6.373% | -
CC(N)c1ccc(Br)cc1OCCO (centres unmarked) | - | 13.3%
CNS(=O)(=O)CC1CCCN1c1ncc(Br)cn1 (centres unmarked) | 60.9% | -
COC(=O)c1cccc(NC(=O)c2n[nH]cc2I)c1 | - | 18.56%
O=C(NC1CCN(C2CCOCC2)CC1)c1ccoc1 | -2.827% | -
CC[S+]([O-])c1ccccc1C(=O)Nc1ccncc1 (centres unmarked) | 13.15% | -
CC(C)(C)CNC(=O)Cc1csc(N2CCCC2=O)n1 | 0.8532% | -
CCC(O)(CC)C(C)(C)CN | 5.849% | -
Cn1c(=O)oc2ccc(NC(=O)C3COCCN3)cc21 (centres unmarked) | -13.36% | -19.9%
COC(=O)NC(C)C(=O)NCCCc1nc(C)cs1 (centres unmarked) | - | -12.73%
Cc1ccc(NC(=O)NCCS(=O)(=O)N(C)C)cc1Cl | 80.53% | 89.07%
CC(C)NC(=O)CSc1nc(C=Cc2cccs2)n[nH]1 | 85.58% | 88.49%
CC(C)c1noc(CN2CCC(CC(N)=O)CC2)n1 | 14.37% | -
OC[C@@H]1CN(C2CCC2)C[C@H]1c1nc(C2CC2)no1 | - | 41.76%
COC(C(=O)NCCn1cccn1)c1ccccc1 (centres unmarked) | 19.16% | -
CC(=O)c1cc(C(=O)N2CCCCC2)c(=O)[nH]c1C | - | 1.434%
CN(CCN)CC(=O)N(C)C | -7.199% | -
O=C(NC(CO)c1ccccc1)[C@@H](O)c1ccccc1 (some centres unmarked) | 24.62% | -
CNCCN1CCOC1=O | - | 5.656%
Cc1cc(C(=O)Nc2ccc3c(c2)CC(=O)N3)c(C)o1 | 14.07% | -
N#Cc1c(N2C(=O)C=CC2=O)sc2c1CCCC2 | - | -0.4977%
CCc1cccnc1C(C)=O | - | -11.24%
CCOCCNC(=O)Nc1ccncc1C | 5.325% | -
CC(CNC(=O)c1nccnc1N)Cn1ccnc1 (centres unmarked) | 24.17% | -

Source: ChEMBL document CHEMBL3988442, “University of Dundee, Small-Polar-MMV Screening Library” (2021).